Pooled drug test results. Numbers come from NIAID ChemDB, via PubChem.

All rows: tests in culture; species: HIV-1; read-out: EC50

Rows are shuffled and stem from different studies. Blank or dashed fields: not listed here. ECn is the concentration giving n% inhibition of infection, replication or growth.

compound | conditions | cell line | strain or isolate | changes | method | value
Cc1cn([C@H]2C[C@H](N=[N+]=[N-])[C@@H](COC(=O)N3CCNCC3)O2)c(=O)[nH]c1=O | - | MT-4 | 899A | - | p24 / antigen / absorbance | 20 µM
C(=C1/CNC/C(=C\c2ccco2)C1=NNc1ccccc1)/c1ccco1 | - | TZM-bl | HXB2 | - | luciferase / single cycle | 1.47 µM
CC(C)=Cc1nc(C)c(Cn2cnc(C(F)(F)C(F)F)c(Oc3cc(C(F)F)cc(C#N)c3C)c2=O)c(=O)[nH]1 | pseudotyped | PBMC | - | - | GFP | 0.456 µM
Cc1ccnc2c1NC(=O)c1cccnc1N2C1CC1 | - | MT-2 | NL4-3 | - | cytopathic effect / neutral red | 0.174 µM
Nc1nc2c(ncn2[C@H]2C=C[C@@H](CO)C2)c(=O)[nH]1 | 5 d | MT-2 | MB48 ddI-resistant | - | cytopathic effect / XTT / RT activity | 4.1 µM
O=c1[nH]cnc2c1ncn2[C@H]1CC[C@@H](CO)O1 | - | CEM-GFP | NL4-3 | - | flow cytometry | 0.0365 µM
Cc1cn([C@H]2C[C@H](N=[N+]=[N-])[C@@H](CO)O2)c(=O)[nH]c1=O | - | CEM + CEM-SS | Clinical isolate G910-6 post-AZT | RT mutant at codon 215 | plaque count | 0.33 µM
Cc1ccccc1NC(=S)Nn1c(-c2ccc(-c3ccccc3)cc2)c[nH]c1=S | - | C8166 | IIIB | - | syncytia / visual reading | 8.45 µM
Cc1cn([C@H]2C[C@H](N=[N+]=[N-])[C@@H](COP(=O)(Nc3cc(C(=O)Nc4cc(C(=O)Nc5cc(C(=O)NCCC#N)n(C)c5)n(C)c4)n(C)c3)OC3CCCCC3)O2)c(=O)[nH]c1=O | - | MT-4 | - | - | p24 / antigen | 0.004 µM
CC(C)(C)NC(=O)[C@@H]1CN(Cc2cccnc2)CCN1C[C@@H](O)C[C@@H](Cc1ccccc1)C(=O)N[C@H]1c2ccccc2C[C@H]1O | - | MT-2 | NL4-3 | Indinavir-resistant (PR L10R M46I L63P V82T I84V) | cytopathic effect / neutral red | 0.0313 µM
Cc1cn([C@H]2C[C@H](N=[N+]=[N-])[C@@H](CO)O2)c(=O)[nH]c1=O | - | MT-4 | HE | - | cytopathic effect / MTS | 0.0011 µM
COC(=O)C(=O)OC1(C(=O)O)C[C@@H](OC(=O)/C=C/c2ccc(O)c(O)c2)C(O)[C@H](OC(=O)/C=C/c2ccc(O)c(O)c2)C1 | - | MT-2 | LAI | - | cytopathic effect / neutral red | 4 µg/mL
C=C(C)[C@@H]1Cc2c(cc3oc(=O)ccc3c2O)O1 | - | C8166 | - | - | MTT / syncytia | 7.26 µM
Cc1cn([C@H]2C[C@H](N=[N+]=[N-])[C@@H](CO)O2)c(=O)[nH]c1=O | - | CEM-GFP | NL4-3 | - | flow cytometry | 0.000523 µM
C#C[C@@]1(CO)C=C[C@H](n2cc(C)c(=O)[nH]c2=O)O1 | - | MAGI (CCR5) + MAGI | HXB2 | RT-M184V | β-galactosidase | 17 µM
Cc1ccccc1NC(=S)Nn1c(-c2ccc(Cl)cc2)c[nH]c1=S | - | C8166 | IIIB | - | syncytia / visual reading | 3.37 µM
C#C[C@]1(CO)O[C@@H](n2cnc3c(N)nc(F)nc32)C[C@@H]1OC(=O)C1CCC(C(C)(C)C)CC1 | pseudotyped | U373-CD4-CXCR4 | NL4-3 | - | luminescence | 0.0026 µM
CC(C)=CCN1c2cc(Cl)cc3[nH]c(=S)n(c23)C[C@@H]1C | - | MT-4 | - | RT-M41L T215Y | - | <0.1 µM
C/C=C/CSc1cc(NC(=S)c2ccsc2C)ccc1Cl | - | CEM + CEM-SS | NL4-3 (RT V179D) | RT-V179D | cytopathic effect / XTT | 0.3 µM
O=c1[nH]cnc2c1ncn2[C@H]1CC[C@@H](CO)O1 | - | PBMC | 4737 | - | ELISA | 0.5 µM
C(=C1/CNC/C(=C\c2ccco2)C1=Nc1ccccc1)/c1ccco1 | - | TZM-bl | HXB2 | - | luciferase / single cycle | >121 µM
Cc1cn([C@@H]2O[C@@H](CO)[C@@H](F)[C@H]2O)c(=O)[nH]c1=O | - | MT-4 | IIIB | - | MTT / syncytia | >1000 µM
Cc1cn([C@H]2C=C[C@@H](CO)O2)c(=O)[nH]c1=O | - | MAGI (CCR5) + MAGI | HXB2 | RT-Y181C | β-galactosidase | 5.2 µM
CC(C)(O)C(=O)Cc1cc2ccc(=O)oc2cc1O | - | C8166 | - | - | MTT / syncytia | 5.62 µM
Fc1ccccc1N=C1/C(=C/c2ccco2)CNC/C1=C\c1ccco1 | - | TZM-bl | HXB2 | - | luciferase / single cycle | >114.8 µM
Cc1cn([C@H]2C[C@H](N=[N+]=[N-])[C@@H](CO)O2)c(=O)[nH]c1=O | - | MT-2 | NL4-3 (1-D4 IN G140S) | - | cytopathic effect / neutral red | 0.024 µM
C#C[C@]1(COC(=O)OCCCCCC)O[C@@H](n2cnc3c(N)nc(F)nc32)C[C@@H]1OC(=O)CCCCCCCCCCCCC | pseudotyped | U373-CD4-CXCR4 | NL4-3 | - | luminescence | 1.093 µM
COc1ccc(-c2oc3c(CC=C(C)C)c(OC4O[C@H](CO)[C@@H](O)[C@H](O)[C@H]4O)cc(O)c3c(=O)c2O[C@@H]2O[C@@H](C)[C@H](O)[C@@H](O)[C@H]2O)cc1 | - | PBMC | BK132 | - | PCR | 9.371 µM
CCOP(=O)(C[C@H]1C[C@@H](n2cc(C)c(=O)[nH]c2=O)ON1C)OCC | - | CEM | - | - | GFP | >1000 µM
Cc1ccnc2c1NC(=O)c1cccnc1N2C1CC1 | - | CEM + CEM-SS | 4XAZT+Y181C (RT D67N K70R Y181C T215Y K219Q) | RT-D67N K70R Y181C T215Y K219Q | cytopathic effect / XTT | 0.8 µM
C1CNCCNCCCN[C@H]([C@@H]2CNCCCNCCNCCCN2)CNC1 | - | CD4+HELA + HeLa | IIIB | - | plaque count / antigen | 0.43 µM
COCCN1CN2C(=O)OCc3c(C(=O)NCc4ccc(F)cc4F)c(=O)c(O)c(n32)C1=O | - | MT4-GFP | NL4-3 | - | fluorescence | 0.0198 µM
O=C(/C=C/c1ccc(O)c(O)c1)O[C@@H]1C[C@](OC(=O)/C=C/c2ccc(O)c(O)c2)(C(=O)O)C[C@@H](O)[C@H]1O | - | MT-2 | LAI | - | cytopathic effect / neutral red | 2 µg/mL
CC1(C)C=Cc2cc3cc(O)c(=O)oc3cc2O1 | - | C8166 | - | - | MTT / syncytia | 1.87 µM
Cc1cn([C@H]2C[C@H](N=[N+]=[N-])[C@@H](CO)O2)c(=O)[nH]c1=O | - | MT-4 | 263)(ddC | - | p24 | 0.07 µM
O=c1oc2ccccc2c(O)c1C(c1ccccc1)c1c(O)c2ccccc2oc1=O | - | MT-2 | IIIB | - | cytopathic effect / neutral red | >0.25 µM
c1cc(CN2CCCNCCNCCCNCC2)ccc1CN1CCCNCCNCCCNCC1 | - | PBMC | ADA R5 | - | antigen | >25 µg/mL
CN[C@@H]1[C@H](O[C@@H]2OC[C@@H](O)[C@H](O)[C@H]2O)[C@@H](O)[C@H](O[C@H]2c3cc(C)c(C(=O)N[C@H](C)C(=O)O)c(O)c3-c3c(cc4c(c3O)C(=O)c3cc(OC)cc(O)c3C4=O)[C@@H]2O)O[C@@H]1C | - | HUT-78/SUP T1 | - | - | syncytia / cell fusion | 3.4 µg/mL
CC1(C)Oc2cc3oc(=O)ccc3cc2[C@@H](O)[C@@H]1O | - | C8166 | - | - | MTT / syncytia | 2.46 µM
Cc1cc(C#N)cc(C)c1Oc1nc(Nc2ccc(C#N)cc2)nc(N)c1Br | - | CEM-GFP | NL4-3 | - | flow cytometry | 0.00083 µM
CCC(=O)c1ccc(F)c([C@@H]2C[C@@H]2NC(=O)Nc2ccc(C#N)cn2)c1O | - | PBMC | 92BR014 | ZA-resistant mutant | absorbance | 0.0002 µM
O=C(O)P(=O)(O)O | - | PBMC | 8684 CLADE C CLADE C | - | p24 | 18.6 µM
Cc1ccc(-c2c[nH]c(=S)n2NC(=S)Nc2ccccc2C)cc1 | - | C8166 | IIIB | - | syncytia / visual reading | 13.7 µM
CNC(=O)OC[C@H]1O[C@@H](n2cc(C)c(=O)[nH]c2=O)C[C@@H]1N=[N+]=[N-] | - | MT-4 | 899A | - | p24 / antigen / absorbance | 50 µM
Cc1cn([C@H]2C[C@H](N(C)O)[C@@H](CO)O2)c(=O)[nH]c1=O | - | MT-4 | IIIB | - | trypan blue | 0.86 µg/mL
Cc1cn([C@H]2CC[C@H](CO)O2)c(=O)[nH]c1=O | - | MT-4 | IIIB | - | MTT / syncytia | >1000 µM
COC1CN2CN(CC3CC3)C(=O)c3c(O)c(=O)c(C(=O)NCc4ccc(F)cc4F)c1n32 | - | MT4-GFP | NL4-3 | - | fluorescence | 0.0014 µM
Cc1cn([C@@H]2O[C@@H](CO)C[C@@H]2O)c(=O)[nH]c1=O | - | MT-4 | IIIB | - | MTT / syncytia | >1000 µM
Cc1occc1C(=S)Nc1ccc(Cl)c(/C=N/OC(C)(C)C)c1 | - | CEM + CEM-SS | 4XAZT+Y181C | - | cytopathic effect / XTT | 0.2 µM
CCCCCCCCCCCCSCC(COP(=O)([O-])OCC[N+](C)(C)C)OCCCCCCCCC(=O)OCC(=O)OC[C@H]1O[C@@H](n2cc(C)c(=O)[nH]c2=O)C[C@@H]1N=[N+]=[N-] | - | CEM + CEM-SS | LAI-XXBRU WT | - | plaque count | 0.05 µM
Cc1c(Sc2ccccc2)n(COCCO)c(=O)[nH]c1=O | - | CEM + CEM-SS | IIIB | RT-Y181C | cytopathic effect / XTT | >325 µM
Cc1cc(C#N)c(C)c(Oc2c(C(F)(F)C(F)F)ncn(Cc3c(C)nc(C)[nH]c3=O)c2=O)c1 | pseudotyped | PBMC | - | - | GFP | 0.3253 µM
CC(C)=CCOc1cc(NC(=S)c2ccoc2C)ccc1Cl | - | TZM-bl | NL4-3 | (36G)V38A N42T | luminescence | >2000 µM
COCCN1CN2CC(OC)c3c(C(=O)NCc4ccc(F)cc4F)c(=O)c(O)c(n32)C1=O | - | MT4-GFP | NL4-3 | - | fluorescence | 0.0047 µM
CC(=O)OC[C@H]1O[C@@H](n2cc(C)c(=O)[nH]c2=O)C[C@@H]1N(C)OC(C)=O | - | MT-4 | IIIB | - | trypan blue | 89 µg/mL
Cc1ccnc2c1NC(=O)c1cccnc1N2C1CC1 | - | CEM-GFP | NL4-3 | - | flow cytometry | 0.000473 µM
Cc1cn([C@H]2C[C@H](N=[N+]=[N-])[C@@H](CO)O2)c(=O)[nH]c1=O | - | MT-4 | 899A | - | p24 / antigen / absorbance | 0.037 µM
Cc1cn([C@H]2C[C@H](N=[N+]=[N-])[C@@H](COP(=O)(Nc3cc(C(=O)NCCC(=N)N)n(C)c3)OC3CCCCC3)O2)c(=O)[nH]c1=O | - | MT-4 | - | - | p24 / antigen | 0.021 µM
CCc1c(Sc2ccccn2)n(COCc2ccccc2)c(=O)[nH]c1=O | - | CEM + CEM-SS | IIIB | - | cytopathic effect / XTT | 0.008 µM
CC(C)(C)NC(=O)[C@@H]1C[C@@H]2CCCC[C@@H]2CN1C[C@@H](O)[C@H](Cc1ccccc1)NC(=O)[C@H](CC(N)=O)NC(=O)c1ccc2ccccc2n1 | - | CEM + CEM-SS | RF2803 WT | - | plaque count | 0.003 µM
C#C[C@]1(CO)O[C@@H](n2cnc3c(N)nc(F)nc32)C[C@@H]1OC(=O)C(C)(C)C | pseudotyped | U373-CD4-CXCR4 | NL4-3 | - | luminescence | 0.2625 µM
Cc1cc(/C=C/C#N)cc(C)c1Nc1ccnc(Nc2ccc(C#N)cc2)n1 | - | MT-4 | NL4-3 | Lu164 | luciferase / RT activity | 0.00009 µM
COc1ccc2c(c1)N(C(=O)OC(C)C)[C@@H](CSC)C(=S)N2 | - | - | HXB2 | - | recombinant virus assay | 0.0027 µM
Cc1cc(C)c(Nc2ccnc(Nc3ccc(C#N)cc3)n2)c(C)c1 | - | PBMC | NL4-3 | - | absorbance | 0.0005 µM
CC(C)=CC(=O)C[C@@H](C)[C@H]1CC[C@@]2(C)[C@@H]3CC[C@H]4C(C)(C)[C@@H](O)C[C@H](O)[C@@]45C[C@@]35CC[C@]12C | - | 1A2 | MC99 deltaTAT/REV | - | syncytia / β-galactosidase | 14.2 µg/mL
OC1/C(=C/c2ccco2)CNC/C1=C\c1ccco1 | - | TZM-bl | HXB2 | - | luciferase / single cycle | >156 µM
Cc1cn([C@H]2C[C@H](N=[N+]=[N-])[C@@H](CO)O2)c(=O)[nH]c1=O | - | CEM + CEM-SS | IIIB | - | cytopathic effect / XTT | 0.003 µM
CCc1c(Cc2ccccc2)nc(OC)[nH]c1=O | - | MT-4 | IIIB | - | MTT / virus yield | <157 µM
S=C(Nc1ccc(Br)cc1)Nn1c(-c2ccc(Br)cc2)c[nH]c1=S | - | C8166 | IIIB | - | syncytia / visual reading | 13 µM
Cn1cc(NC(=O)c2cc(NC(=O)c3cc([N+](=O)[O-])cn3C)cn2C)cc1C(=O)NCCC#N | - | MT-4 | - | - | p24 / antigen | >100 µM
C=C(CC[C@@H](C)[C@H]1CC[C@@]2(C)[C@@H]3CC[C@H]4[C@](C)(C(=O)O)[C@@H](O)CC[C@@]45C[C@@]35CC[C@]12C)C(C)C | - | 1A2 | MC99 deltaTAT/REV | - | syncytia / β-galactosidase | 58.1 µg/mL
CCc1c(C(=O)c2cc(C)cc(C)c2)n(CC2CC=CC2)c(=O)[nH]c1=O | clinical isolate | PBMC | CLADE B | - | cytopathic effect / XTT | 0.0006 µM
C#C[C@]1(CO)O[C@@H](n2cnc3c(N)nc(F)nc32)C[C@@H]1O | pseudotyped | U373-CD4-CXCR4 | NL4-3 | - | luminescence | 0.0065 µM

For reference, 5 entries again:

compound,conditions,cell line,strain or isolate,changes,method,value
O=C(/C=C/c1ccc(O)c(O)c1)O[C@@H]1C[C@](OC(=O)/C=C/c2ccc(O)c(O)c2)(C(=O)O)C[C@@H](O)[C@H]1O,-,MT-2,LAI,-,cytopathic effect / neutral red,2 µg/mL
Cc1cn([C@H]2C[C@H](N=[N+]=[N-])[C@@H](COP(=O)(Nc3cc(C(=O)Nc4cc(C(=O)Nc5cc(C(=O)NCCC#N)n(C)c5)n(C)c4)n(C)c3)OC3CCCCC3)O2)c(=O)[nH]c1=O,-,MT-4,-,-,p24 / antigen,0.004 µM
O=c1[nH]cnc2c1ncn2[C@H]1CC[C@@H](CO)O1,-,PBMC,4737,-,ELISA,0.5 µM
Cc1cn([C@H]2CC[C@H](CO)O2)c(=O)[nH]c1=O,-,MT-4,IIIB,-,MTT / syncytia,>1000 µM
O=c1[nH]cnc2c1ncn2[C@H]1CC[C@@H](CO)O1,-,CEM-GFP,NL4-3,-,flow cytometry,0.0365 µM